From US6548476B1, “Dimeric inhibitors of influenza neuraminidase” (priority 1999, dated 2003)

Tested on: influenza A virus
Assay: Inhibition of influenza A virus replication (cytopathic effect) in MDCK cells
Conditions: comparison of the Table 2 results with monomer (7) or compound (A)

Compound | activity against influenza compared with reference compounds (in words)
CC(=O)N[C@H]1[C@H]([C@H](OC(=O)NCCCCCCNC(=O)NCCCCCCCCCCCCNC(=O)NCCCCCCNC(=O)O[C@@H]([C@@H]2OC(C(=O)O)=C[C@H](NC(=N)N)[C@H]2NC(C)=O)[C@H](O)CO)[C@H](O)CO)OC(C(=O)O)=C[C@@H]1NC(=N)N [(3), Bis-[7-(6′-hexyleneureodo)-carbamoyloxy-5-acetamido-4-guanidino-2,3,4,5-tetradeoxy-D-glycero-D-galacto-non-2-enopyranosonic acid]] | more active against influenza than the monomeric ligand molecule (7)
CC(=O)N[C@H]1[C@H]([C@H](OC(=O)NCCCCCCNC(=O)CNC(=O)CNC(=O)CNC(=O)NCCCCCCNC(=O)NCC(=O)NCC(=O)NCC(=O)NCCCCCCNC(=O)O[C@@H]([C@@H]2OC(C(=O)O)=C[C@H](NC(=N)N)[C@H]2NC(C)=O)[C@H](O)CO)[C@H](O)CO)OC(C(=O)O)=C[C@@H]1NC(=N)N [(4)] | more active against influenza than the monomeric ligand molecule (7)
